This experiment relates to Salmonella typhimurium 14028S. In words: Relative MIC of crude preparations of recombinant peptides. Format: cell-based. The conditions noted are these: for Gram-negative activity relative to indolicidin: from MICs of crude preparations of recombinant peptides; for Activity against gram-negative bacteria compared with indolicidin-R: MIC assay. The source says: Expression and purification of various cationic peptides has previously been described (Hancock et al., U.S. Ser. No. 08/575,052, incorporated herein by reference, and Gene, 134 (1993) 7-13). In order to recombinantly express various antimicrobial peptides described below, oligonucleotides representing both strands of DNA encoding the various peptides were synthesized on an Applied Biosystems 392 DNA/RNA synthesizer using conventional methods. After annealing of the strands of DNA, the resulting DNA fragments were cloned into the Staphyloccus aereus expression vector pRIT5. Following transformation of the various clones into E. Coli DH5α, the recombinant plasmids were purified and sequenced and then electroporated (Bio Rad Gene Pulser Transfection Apparatus) into S. aereus K147.

As to ILPWKWFFPPWPWRR [CP-pM1b], the “Gram-negative activity relative to indolicidin” value was found to be 0.2X.
Turning to ILKPWKWPWWPWRR [CP-1R], the “Gram-negative activity relative to indolicidin” value came out at 0.5X.
For the sequence ILPWKWPWRR [CP-pM], the “Gram-negative activity relative to indolicidin” value came out at 0.2X.
On to ILPWKWPPWPPWPWRR [CP-pM2b], for which the “Activity against gram-negative bacteria compared with indolicidin-R” value is listed as “increased activity” and the “Gram-negative activity relative to indolicidin” value was 1.5X.
For ILPWKWPWWPWWPWRR [CP-pM2a], the “Activity against gram-negative bacteria compared with indolicidin-R” value was “increased activity” and the “Gram-negative activity relative to indolicidin” value was 1.5X.
In the case of ILKKWPWWPWRR [CP-4R], the “Gram-negative activity relative to indolicidin” value is given as 0.5X.
Still for that read-out and setting: then ILPWKWPWWPWWKKPWRR [CP-pM5], with 0.5X.

For the origin of these results see patent publication US7390873B2, “Antimicrobial cationic peptides” (University of British Columbia, priority 1995, dated 2008).
